Values from PubChem BioAssay AID1259414 (Drosophila RNAi Screening Center, 2018)

- Aim: 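Fly genes that alter Wolbachia amount inside host cells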 (primary screen)
- Cells: Drosophila JW18 cells infected with Wolbachia
- Reagent: long dsRNA against Drosophila genes, 0.25 µg dsRNA per well of a 384-well plate
- Duration: 5 days
- Treatment: cells persistently infected with Wolbachia before knock-down; no added drug
- Read-out: 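Automated imaging of bacterial rRNA staining divided by host cell count, reported as plate-normalised robust z-score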
- Scale: Wolbachia per cell robust z: higher = more Wolbachia per host cell than the plate typical
- Hit rule: 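Hit when robust z is 1.5 or more, or -1.5 or less, in at least two of three replicates; excludes dsRNAs with several or no targets, genes not expressed in JW18 and well A1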
The deposit covers about 24,000 reagents; shown is a random part of those with a known target gene and a result. Of all reagents, about 1,210 (5%) got an active call. 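Inactive calls also include excluded dsRNAs with several or no targets, genes unexpressed in JW18, and well A1, regardless of score.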 Reagents against one gene are numbered here. Names joined by + are all predicted targets of the reagent.

no.	Target gene	reagent no.	Wolbachia per cell robust z, rep 1	Wolbachia per cell robust z, rep 2	Wolbachia per cell robust z, rep 3	activity call
1	Noc2 (GeneID 35386)	1	0.36	0.653	0.495	inactive
2	CG3916 (GeneID 41484)	1	0.409	-1.42	1.29	inactive
3	CG3916 (GeneID 41484)	2	-0.191	-0.0627	-1.75	inactive
4	pch2 (GeneID 41013)	1	-1.6	0.686	1.12	inactive
5	pch2 (GeneID 41013)	2	-0.0697	0.802	-0.336	inactive
6	mil (GeneID 43343)	1	-0.478	-0.133	0.23	inactive
7	AnxB10 (GeneID 33019)	1	-0.777	0.446	-0.482	inactive
8	AnxB10 (GeneID 33019)	2	1.45	0.825	0.38	inactive
9	CG14052 (GeneID 31203)	1	0.456	0.895	0.613	inactive
10	CG14052 (GeneID 31203)	2	-4.15	-1.07	-2.55	inactive
11	CG14052 (GeneID 31203)	3	-0.779	0.556	1.33	inactive
12	fng (GeneID 40314)	1	-1.09	-1.14	-1.31	inactive
13	fng (GeneID 40314)	2	0.313	-0.16	0.939	inactive
14	fng (GeneID 40314)	3	-0.318	0.00991	-1.46	inactive
15	Spn42De (GeneID 35602)	1	-0.649	-1.06	-0.414	inactive
16	Spn42De (GeneID 35602)	2	0.76	-0.348	0.666	inactive
17	Vlet (GeneID 32116)	1	-1.35	-0.29	0.374	inactive
18	Vlet (GeneID 32116)	2	-1.25	0.197	-0.33	inactive
19	CG4269 (GeneID 37578)	1	0.229	-0.687	0.84	inactive
20	CG13526 (GeneID 37613)	1	-0.465	-0.0682	0.587	inactive
21	CG15117 (GeneID 37197)	1	-0.198	0.295	-1.74	inactive
22	CG15117 (GeneID 37197)	2	0.273	0.547	0.243	inactive
23	HIP-R + HIP	1	-0.09	-5.74	0.0913	inactive
24	HIP-R + HIP	2	0.657	-0.0158	0.641	inactive
25	HIP-R + HIP	3	0.261	2.14	0.296	inactive
26	asRNA:CR42738 + CG14610	1	0.0961	-3.34	-1.96	inactive
27	CG13698 (GeneID 40000)	1	-1.86	0.66	0.0133	inactive
28	CG11417 (GeneID 31083)	1	1.58	0.23	0.479	inactive
29	Osi14 (GeneID 40770)	1	0.306	-1.51	-0.0966	inactive
30	Osi14 (GeneID 40770)	2	1.03	0.737	-0.838	inactive
31	CG11110 (GeneID 37337)	1	-4.62	-0.502	0.129	inactive
32	CG11110 (GeneID 37337)	2	-1.77	0.94	0.95	inactive
33	CG42748 (GeneID 35442)	1	-5.25	0.51	-0.961	inactive
34	CG42748 (GeneID 35442)	2	-0.711	0.325	-2.98	inactive
35	CG42748 (GeneID 35442)	3	-0.0646	-0.482	-0.519	inactive
36	CG42748 (GeneID 35442)	4	0.254	-1.56	0.153	inactive
37	PIG-F (GeneID 40139)	1	0.478	0.31	0.512	inactive
38	PIG-F (GeneID 40139)	2	0.901	-0.0788	1.31	inactive
39	CG42296 (GeneID 53544)	1	-0.739	-1.2	-1.6	inactive
40	Mpi (GeneID 41192)	1	0.382	-0.453	-0.433	inactive
41	Cdc50 (GeneID 32615)	1	-0.99	-2.28	0.469	inactive
42	Epac (GeneID 35588)	1	-0.221	-0.527	-1.17	inactive
43	Epac (GeneID 35588)	2	0.464	-2.57	0.441	inactive
44	Epac (GeneID 35588)	3	0.107	0.166	1.04	inactive
45	Est-6 (GeneID 39392)	1	0.778	-1.51	-0.32	inactive
46	Est-6 (GeneID 39392)	2	-0.305	0.516	0.453	inactive
47	eRF3 (GeneID 34658)	1	-0.156	0.947	0.317	inactive
48	CG14005 (GeneID 33808)	1	0.842	0.913	0.542	inactive
49	Seipin (GeneID 31245)	1	0.446	0.844	0.927	inactive
50	P5cr (GeneID 42284)	1	-0.3	0.688	-4.87	inactive
51	Fsn + CG17059	1	1.69	1.6	0.56	inactive
52	yip7 (GeneID 38680)	1	-0.432	-3.79	0.688	inactive
53	yip7 (GeneID 38680)	2	0.715	0.36	-0.87	inactive
54	wry (GeneID 33361)	1	-0.638	-1.6	-0.882	inactive
55	wry (GeneID 33361)	2	0.122	0.947	1.13	inactive
56	wry (GeneID 33361)	3	0.453	-0.144	-2.16	inactive
57	CG12851 (GeneID 37993)	1	-0.288	-2.55	0.0153	inactive
58	hfw (GeneID 31120)	1	-0.821	-0.136	0.786	inactive
59	hfw (GeneID 31120)	2	-2.12	-0.351	-2.06	active
60	HDAC3 (GeneID 44446)	1	-0.193	0.294	-3.89	inactive
61	Mal-A3 (GeneID 35826)	1	-2.44	-0.326	0.424	inactive
62	Mal-A3 (GeneID 35826)	2	0.628	-2.12	0.0207	inactive
63	Dpy-30L1 (GeneID 34480)	1	-0.0936	0.527	-0.913	inactive
64	Dpy-30L1 (GeneID 34480)	2	-1.84	-1.36	-2.28	active
65	eIF2beta (GeneID 39433)	1	2.15	2.57	4.62	active
66	eIF2beta (GeneID 39433)	2	-0.999	0.326	-0.869	inactive
67	Ndc1 (GeneID 42825)	1	0.138	-0.0529	0.929	inactive
68	goe (GeneID 32660)	1	-1.83	-1.91	-0.153	active
69	goe (GeneID 32660)	2	0.829	1.16	1.12	inactive
70	uzip (GeneID 38002)	1	0.684	0.676	-0.228	inactive
71	uzip (GeneID 38002)	2	-4.24	0.268	-0.694	inactive
72	Socs16D (GeneID 32760)	1	0.0187	-0.259	2.08	inactive
73	Socs16D (GeneID 32760)	2	-0.371	-0.183	-0.315	inactive
74	Mmp1 (GeneID 37949)	1	0.658	1.17	0.709	inactive
75	Cyp12b2 (GeneID 37163)	1	-0.344	-1.17	-0.859	inactive
76	ppk26 (GeneID 38835)	1	-1.35	-0.893	-0.0647	inactive
77	ppk26 (GeneID 38835)	2	-0.38	-0.0765	0.0863	inactive
78	CG6015 (GeneID 42593)	1	3.69	2.64	3.95	inactive
79	CG6015 (GeneID 42593)	2	6.24	8.07	8.32	inactive
80	Vps16B (GeneID 43521)	1	0.738	-1.17	0.624	inactive
81	slv (GeneID 35773)	1	0.325	0.651	-0.253	inactive
82	CG10151 (GeneID 36639)	1	-1.94	-0.937	-1.05	inactive
83	CG10151 (GeneID 36639)	2	-6.73	-1.06	-1.17	inactive
84	CG7916 (GeneID 34800)	1	-1.01	-1.6	-0.0716	inactive
85	CG12713 (GeneID 39724)	1	-0.085	-0.908	-0.334	inactive
86	CG12713 (GeneID 39724)	2	-6.25	-8.62	-0.874	active
87	CG9003 (GeneID 36244)	1	-0.0238	-2.31	-1.65	active
